# Source: paper PMC3169552, “Membrane Remodeling by the Double-Barrel Scaffolding Protein of Poxvirus” (2011)
# Molecular target: His6-tagged vaccinia virus D13 D513G (vaccinia virus, Western Reserve strain)
# Assay: crystal structure
substance,measurement,value
His6-tagged vaccinia virus D13 D513G (natural protein),stoichiometry N,3
